Anti-infective test results gathered from many reports (values: NIAID ChemDB through PubChem).

Common to all: tests in culture

ECn: concentration that inhibits the pathogen or its effect by n%. MIC50, MIC90 and the like: level of inhibition, or share of isolates inhibited. Inhibition is in % at the dose shown (toxicity tests: loss of growth or viability). Neighbouring rows are from separate reports. Blank or dashed fields: not listed here.

SMILES | organism | method | measure | cells | dose | strain | value
O=S(=O)([O-])c1cc(NS(=O)(=O)c2ccccc2)c2c(S(=O)(=O)[O-])cc(S(=O)(=O)[O-])cc2c1 | Rhinovirus | cytopathic effect | inhibition | Human embryonic lung cells | 5 µg/mL |  | 20%
CCOC(=O)/C=C/[C@H](C[C@@H]1CCNC1=O)NC(=O)[C@@H](CC(=O)[C@@H](NC(=O)c1cc(C)on1)C(C)C)Cc1ccc(F)cc1 | Rhinovirus | cytopathic effect / visual reading | EC50 | OHIO HELA-I |  | Isolate 25 | 0.02 µg/mL
Cc1ccc(Cn2cnc3c(N(C)C)nc(C(F)(F)F)nc32)cc1C | Rhinovirus | plaque count | inhibition | M-HELA | 8 µM | Serotype 3 | 39%
CCC1C(c2ccccc2)OC(c2ccccc2)CC12NNC(=S)N2 | Rhizopus spp. |  | MIC |  |  |  | 100 µg/mL
O=S(=O)([O-])c1cc(S(=O)(=O)[O-])c2cc(NS(=O)(=O)c3ccccc3)ccc2c1 | Rhinovirus | cytopathic effect | inhibition | Human embryonic lung cells | 50 µg/mL |  | 15%
S=C1NN(c2ccccc2)C2(CC(c3ccccc3)OC(c3ccccc3)C2)N1 | Rhizopus spp. |  | MIC |  |  |  | 12.5 µg/mL
CN(C)c1ccc(Cn2cnc3c(N(C)C)nc(C(F)(F)F)nc32)cc1 | Rhinovirus | plaque count | inhibition | M-HELA | 8 µM | Serotype 30 | 35%
CC1C(c2ccccc2)OC(c2ccccc2)CC12NNC(=S)N2 | Rhizopus spp. |  | MIC |  |  |  | 25 µg/mL
Cc1cc(Cl)ccc1Cn1cnc2c(N(C)C)nc(C(F)(F)F)nc21 | Rhinovirus | plaque count | EC50 | M-HELA |  | Serotype 5 | >8 µM
Cc1cc(-c2ccc(N=Nc3c(S(=O)(=O)O)cc4cc(S(=O)(=O)O)cc(N)c4c3O)c(C)c2)ccc1N=Nc1c(S(=O)(=O)O)cc2cc(S(=O)(=O)O)cc(N)c2c1O | Rhinovirus | cytopathic effect | inhibition | Human amnion AV3 cells | 5 µg/mL |  | 0%
CN(C)c1nc(C(F)(F)F)nc2c1ncn2Cc1cccc(F)c1 | Rhinovirus | plaque count | inhibition | M-HELA | 8 µM | Serotype 5 | 34%
Nc1ccc2c(O)cc(S(=O)(=O)[O-])cc2c1S(=O)(=O)[O-] | Rhinovirus | cytopathic effect | inhibition | Human amnion AV3 cells | 50 µg/mL |  | 10%
Cc1ccc(Cn2cnc3c(N(C)C)nc(C(F)(F)F)nc32)cc1 | Rhinovirus | plaque count | inhibition | M-HELA | 8 µM | Serotype 21 | 40%
CCOC(=O)c1ccc(OCCC2CCN(c3ccc(C)nn3)CC2)cc1 | Rhinovirus | neutral red | EC50 | KB |  | FO2-2317 (ICAM-1 receptor group 68) | 0.019 µM
Fc1cccc(Cn2cnc3c(Nc4cccc(F)c4)nc(C(F)(F)F)nc32)c1 | Rhinovirus | plaque count | EC50 | M-HELA |  | Serotype 7 | 1.9 µM
Cc1cc(CCCCCOc2cc(Cl)c(-c3nnc(C)o3)c(Cl)c2)on1 | Rhinovirus |  | MIC80 |  |  | Serotype 30 | 0.031 µg/mL
Nc1ccc(S(=O)(=O)[O-])c2c(S(=O)(=O)[O-])ccc(O)c12 | Rhinovirus | cytopathic effect | inhibition | Human embryonic lung cells | 50 µg/mL |  | 80%
Cc1cc(CCCCCOc2cc(Cl)c(-c3nnco3)c(Cl)c2)on1 | Rhinovirus |  | MIC80 |  |  | Serotype 86 | 1.28 µg/mL
O=S(=O)(O)c1cc(O)c2c(O)c(N=Nc3ccccc3)c(S(=O)(=O)O)cc2c1 | Rhinovirus | cytopathic effect | inhibition | Human amnion AV3 cells | 10 µg/mL |  | 16%